Results of unrelated studies side by side (data: NIAID ChemDB).

Common to all: growth or infection tests; agent: Cryptococcus neoformans; measure: MIC100

A number after MIC or MFC names an inhibition level or a share of isolates. Blank or dashed fields: not listed here. Lines come from different laboratories, so protocols vary.

| compound | strain | read by | result |
|---|---|---|---|
| O=C(Oc1cc2cc(Br)cnc2[nH]1)c1ccccc1 | ATCC90112 |  | 7.8 µg/mL |
| O=C1N[C@@H](Cc2c[nH]c3ccccc23)C(=O)N2CCC[C@@H]12 |  | broth dilution | 2 µg/mL |
| Cc1ccc(-c2c3c(N)c4c(nc3nc3c2c(C)nn3-c2ccccc2)CCC4)cc1 | ATCC 32264 | broth dilution / absorbance | 250 µg/mL |
| COc1ccccc1-c1cc2cccnc2[nH]1 | ATCC90112 |  | 4 µg/mL |
| CCNC(=S)N/N=C(\N)c1ccccn1 | ATCC 24067D2 |  | >416.7 µM |
| COc1ccc(-c2c3c(N)c4c(nc3nc3c2c(C)nn3-c2ccccc2)CCCCC4)cc1 | ATCC 32264 | broth dilution / absorbance | >250 µg/mL |
| O=c1c2cc(O)ccc2oc2cccc(O)c12 |  | broth dilution | >64 µg/mL |
| C[C@H]1[C@H](O)[C@@H](C)/C=C/C=C/C=C/C=C/C=C/C=C/C=C/[C@H](O[C@@H]2O[C@H](C)[C@@H](O)[C@H](N)[C@@H]2O)C[C@@H]2O[C@](O)(C[C@@H](O)C[C@@H](O)CC[C@H](O)[C@@H](O)C[C@@H](O)CC(=O)O[C@H]1C)C[C@H](O)[C@H]2C(=O)O | MTCC 4406 | broth dilution | 0.25 µg/mL |
| Cc1ccc(-c2c3c(N)c4c(nc3nc3c2c(C)nn3-c2ccccc2)CCCCC4)cc1 | ATCC 32264 | broth dilution / absorbance | 125 µg/mL |
| C[Si](C)(C)C#Cc1cnc2[nH]c(-c3ccccc3)cc2c1 | ATCC90112 |  | 3.9 µg/mL |
| COc1ccc(-c2c3c(N)c4c(nc3nc3c2c(C)nn3-c2ccccc2)CCCC4)cc1 | ATCC 32264 | broth dilution / absorbance | 250 µg/mL |
| CC1CC(c2ccncc2)Nc2ccc(Br)cc21 | ATCC 32264 |  | >250 µg/mL |
| COc1ccccc1-c1cc2cc(C)cnc2[nH]1 | ATCC90112 |  | 3.9 µg/mL |
| Cc1nn(-c2ccccc2)c2nc3nc4c(c(N)c3c(-c3ccc(Cl)cc3)c12)CCC4 | ATCC 32264 | broth dilution / absorbance | >250 µg/mL |
| COc1ccc(-c2cc3cc(C)cnc3[nH]2)cc1 | ATCC90112 |  | 7.8 µg/mL |
| C[C@@H]1[C@H](O)[C@@H](C)/C=C/C=C/C=C/C=C/C=C/C=C/C=C/[C@H](O[C@@H]2O[C@H](C)[C@@H](O)[C@H](N)[C@@H]2O)C[C@@H]2O[C@](O)(C[C@@H](O)C[C@@H](O)[C@H](O)CC[C@@H](O)C[C@@H](O)CC(=O)O[C@H]1C)C[C@H](O)[C@H]2C(=O)O |  | broth dilution | 1.63 µg/mL |

For reference, 2 entries again:

O=C(Oc1cc2cc(Br)cnc2[nH]1)c1ccccc1 ; strain: ATCC90112 ; result: 7.8 µg/mL
C[Si](C)(C)C#Cc1cnc2[nH]c(-c3ccccc3)cc2c1 ; strain: ATCC90112 ; result: 3.9 µg/mL